Results of unrelated studies side by side (data: NIAID ChemDB).

Common to all: whole-cell or culture tests; species: Candida albicans; read-out: MIC

Conditions beyond the fields shown may differ between rows. Two numbers with a dash give a range or band. Blank or dashed fields: not listed here.

SMILES	setting	strain or isolate	result
O[C@](Cn1cncn1)(Cn1cnc(/C=C/c2ccc(OCC(F)(F)C(F)F)cc2)n1)c1ccc(F)cc1F		Isolate 06-9	2 µg/mL
CCOC(=O)Cc1csc(NC(=O)CSc2nnc(C(C)Oc3ccc(C)cc3)n2C2CCCCC2)n1		Clinical isolates	>16 µg/mL
CC(C)C(=N)CCC[C@H]1CO[C@@](Cn2cncn2)(c2ccc(F)cc2F)C1		IFO. 1385	12.5 µg/mL
C[C@H]1[C@H](O)[C@@H](C)/C=C/C=C/C=C/C=C/C=C/C=C/C=C/[C@H](O[C@@H]2O[C@H](C)[C@@H](O)[C@H](N)[C@@H]2O)C[C@@H]2O[C@](O)(C[C@@H](O)C[C@@H](O)CC[C@H](O)[C@@H](O)C[C@@H](O)CC(=O)O[C@H]1C)C[C@H](O)[C@H]2C(=O)O		ATCC64550	0.5 µg/mL
Clc1ccc(C(Cn2ccnc2)OCc2ccc(-c3ccccc3)cc2)cc1		PR1	>128 µg/mL
CNc1ccc(C(=O)CC(O)CCC(C)C2OC(=O)CC(O)CC(=O)CC(O)CC(O)CC(O)CC(O)CC3(O)CC(O)C(C(=O)N4CCN(C)CC4)C(CC(O[C@@H]4O[C@H](C)[C@@H](O)[C@H](NC(=O)CCN5CCCCC5)[C@@H]4O)/C=C/C=C/C=C/C=C\C=C/C=C/C=C/C2C)O3)cc1		200	0.03 µg/mL
CCC(C)n1ncn(-c2ccc(N3CCN(c4ccc(OC[C@H]5CO[C@](Cn6cncn6)(c6ccc(Cl)cc6Cl)O5)cc4)CC3)cc2)c1=O		Isolate CA-8	>8 µg/mL
O=c1[nH]nc(Cc2ccc(Cl)cc2)n1CCO		ATCC16231	>250 µg/mL
Cc1c(O)cccc1C(=O)N[C@@H](CSc1ccccc1)[C@H](O)CN1C[C@H]2CCCC[C@H]2C[C@H]1C(=O)NC(C)(C)C		I127A	64 µg/mL
CCOC(=O)c1csc(NC(=O)CSc2nnc(C(C)Oc3ccc(C)cc3)n2-c2ccccc2)n1		NRRL Y-27077	8 µg/mL
CC(C)C(=N)CCC[C@H]1CO[C@@](Cn2ccnc2)(c2ccc(F)cc2F)C1		B02630	>100 µg/mL
Cc1ccc(C(C)C)cc1		ATCC 10231	5–10 µg/mL
CN(CCCC#CC(C)(C)C)c1cccc2c1CCC(=O)N2		Clinical isolate 17	31.25 µg/mL
CO[C@H]1[C@@H](OC(=O)OCc2ccccc2)[C@H](O)[C@H](OCC23C4C=C(C(C)C)C2(C(=O)O)C(C=O)(C4)[C@@H]2CC[C@@H](C)[C@H]23)O[C@@H]1C		2005	2 µg/mL
Brc1ccc(CO/N=C2/c3ccccc3OCC2n2cncn2)cc1		ATCC 10231	16 µg/mL
Clc1ccc(C(Cn2ccnc2)OCc2cccc3ccccc23)c(Cl)c1		CA2	2 µg/mL
CCCSc1ccc2nc(NC(=O)OC)[nH]c2c1	24 h	92-889	5 µg/mL
CC(C)(C)c1ccc(COC(Cn2ccnc2)c2ccc(Cl)cc2Cl)cc1		CDCB385	>128 µg/mL
Clc1ccc(CO/N=C2/c3ccc(Cl)cc3OCC2n2cncn2)cc1		ATCC 10231	32 µg/mL
CC(C)C(=O)CCC[C@@H]1CO[C@@](Cn2cccc2)(c2ccc(F)cc2F)C1		A.10231	>100 µg/mL
CC(Oc1ccccc1)c1nnc(SCC(=O)Nc2nccs2)n1C1CCCCC1		Clinical isolates	>16 µg/mL
O=C(CCN1C(=O)S/C(=C\c2ccc(O)cc2O)C1=O)Nc1ccccc1O			50 µg/mL
CNc1ccc(C(=O)CC(O)CCC(C)C2OC(=O)CC(O)CC(=O)CC(O)CC(O)CC(O)CC(O)CC3(O)CC(O)C(C(=O)NCCN(C)C)C(CC(O[C@@H]4O[C@H](C)[C@@H](O)[C@H](NC(=O)CN(C)C)[C@@H]4O)/C=C/C=C/C=C/C=C\C=C/C=C/C=C/C2C)O3)cc1		200	0.06 µg/mL
CC(/C=C/C=C(\C)C(O)C(C)C(=O)O[C@H]1C[C@@H](C)C=C2C=C[C@@](C)(O)[C@](C)(C(=O)CCO)[C@H]21)=C\C=C\C(=O)O		CCH442	50 µg/mL
O=C1c2ccccc2C(=O)N1n1c(Cc2ccccc2)n[nH]c1=O		ATCC16231	>250 µg/mL
Cc1csc(NC(=O)CSc2nnc(C(C)Oc3ccccc3)n2-c2ccccc2)n1		NRRL Y-27077	16 µg/mL
CC(C)C(=O)CCC[C@H]1CO[C@@](Cn2cccc2)(c2ccc(F)cc2F)C1		CI-2	>100 µg/mL
c1ccc(CO/N=C(/Cn2ccnc2)c2ccccc2)cc1		CA2	2 µg/mL
Cc1ccc(NC(=O)CCN2C(=O)S/C(=C\c3ccc(O)c(O)c3O)C2=O)cc1			50 µg/mL
Clc1ccc(/C(Cn2ccnc2)=N/OCc2ccccc2)cc1		Y0109	32 µg/mL
COc1cc(O)c2c(c1)C(=O)c1c(cc3c(c1O)-c1c(cc(C)c(C(=O)NC(CO)C(=O)O)c1O)[C@H](OC1OC(C)C(O)C(OC4OCC(O)C(O)C4O)C1O)C3O)C2=O		A25941 (amphotericin B-resistant)	4 µg/mL
C[C@H]1[C@H](O)[C@@H](C)/C=C/C=C/C=C/C=C/C=C/C=C/C=C/[C@H](O[C@@H]2O[C@H](C)[C@@H](O)[C@H](N)[C@@H]2O)C[C@@H]2O[C@](O)(C[C@@H](O)C[C@@H](O)CC[C@H](O)[C@@H](O)C[C@@H](O)CC(=O)O[C@H]1C)C[C@H](O)[C@H]2C(=O)O		2381E	0.008 µg/mL
Fc1ccccc1CO/N=C1\c2ccccc2OCC1n1cncn1		ATCC 10231	>64 µg/mL
Cc1ccc(C)c(/C=C2\SC(=O)N(CCC(=O)Nc3ccccc3O)C2=O)c1			12.5 µg/mL
CCOC(=O)c1csc(NC(=O)CSc2nnc(C(C)Oc3ccc(C)cc3)n2C2CCCCC2)n1		NRRL Y-27077	>16 µg/mL
COc1ccc2c(Cc3ccc(C(C)(C)C)cc3)c3[n+](cc2c1OC)CCc1cc2c(cc1-3)OCO2		ATCC 10231	1.56 µg/mL
CNc1ccc(C(=O)CC(O)CCC(C)C2OC(=O)CC(O)CC(=O)CC(O)CC(O)CC(O)CC(O)CC3(O)CC(O)C(C(=O)N4CCN(CCO)CC4)C(CC(O[C@@H]4O[C@H](C)[C@@H](O)[C@H](NC(=O)CCN5CCCCC5)[C@@H]4O)/C=C/C=C/C=C/C=C\C=C/C=C/C=C/C2C)O3)cc1		73	0.015 µg/mL
CC(C)C(=N)CCC=C1CO[C@@](Cn2cncn2)(c2ccc(F)cc2F)C1		CI-2	100 µg/mL
Clc1ccc(CO/N=C(\c2ccccc2)c2cc3ccccc3o2)cc1			16 µg/mL
C[C@@H](SC1COC(/C=C/C=C/c2ccc(C#N)cc2F)OC1)[C@](O)(Cn1cncn1)c1ccc(F)cc1F		CAL-0008	0.5 µg/mL
Clc1ccc(CO/N=C2\c3ccccc3OCC2n2cncn2)c(Cl)c1		ATCC 10231	64 µg/mL
CCO/N=C(\c1ccc(Cl)cc1)c1cc2ccccc2o1			1 µg/mL
Cc1ccc(/C=C2\SC(=O)N(CCC(=O)Nc3ccccc3O)C2=O)c(C)c1			12.5 µg/mL
O=C(/C=C/c1ccc(O)cc1O)c1ccccc1		SDAU6	75 µg/mL
Cc1ccc2c(c1)c1nnc(N3CCN(C)CC3)nc1n2C		2381E	4 µg/mL
c1ccc(-c2ccc(COC(Cn3ccnc3)c3ccccc3)cc2)cc1		CDCB385	128 µg/mL
O=C(Nc1nc2ccc(NC(=O)[C@@H]3CCC[C@H](NCc4ccc5ccccc5c4)C3)cc2s1)C1CCCC1		IFM 5728	0.78 µM
CC(=O)N(C(C)=O)n1c(Cc2ccc(Cl)cc2)n[nH]c1=O		ATCC16231	>250 µg/mL
CCOc1cc2c(cc1F)n([O-])c(C)c(Cl)[n+]2=O		Clinical isolate 21	31.25 µg/mL
Clc1ccc(C(Cn2ccnc2)OCc2cccc3ccccc23)cc1		CA7	>128 µg/mL
CCOC(=O)Cc1csc(NC(=O)CSc2nnc(C(C)Oc3ccc(Cl)cc3)n2-c2ccccc2)n1		NRRL Y-27077	8 µg/mL
COc1ccc(/C(=N\O)c2cc3ccccc3o2)cc1			2 µg/mL
Fc1ccc(CCCCn2c3c(c4cc(F)ccc42)CNCC3)cc1		OY3-55	0.5 µg/mL
CNc1ccc(C(=O)CC(O)CCC(C)C2OC(=O)CC(O)CC(=O)CC(O)CC(O)CC(O)CC(O)CC3(O)CC(O)C(C(=O)N4CCCCC4)C(CC(O[C@@H]4O[C@H](C)[C@@H](O)[C@H](N)[C@@H]4O)/C=C/C=C/C=C/C=C\C=C/C=C/C=C/C2C)O3)cc1		200	0.06 µg/mL
Clc1ccc(/C(Cn2ccnc2)=N/OCc2ccccc2)c(Cl)c1		Y0109	32 µg/mL
O=c1[nH]nc(-c2ccccc2)n1-c1cccnc1		ATCC16231	>250 µg/mL
C[C@H]1[C@H](O)[C@@H](C)/C=C/C=C/C=C/C=C/C=C/C=C/C=C/[C@H](O[C@@H]2O[C@H](C)[C@@H](O)[C@H](N)[C@@H]2O)C[C@@H]2O[C@](O)(C[C@@H](O)C[C@@H](O)CC[C@H](O)[C@@H](O)C[C@@H](O)CC(=O)O[C@H]1C)C[C@H](O)[C@H]2C(=O)O		FR2	0.008 µg/mL
Clc1ccc(/C(Cn2ccnc2)=N\OCc2ccccc2)cc1		3M	8 µg/mL
CCOC(=O)Cc1csc(NC(=O)CSc2nnc(C(C)Oc3ccccc3)n2-c2ccccc2)n1		NRRL Y-27077	4 µg/mL
C/C=C/C=C(/C)C(=O)O[C@H]1[C@H](O)[C@H](OCC23C4C=C(C(C)C)C2(C(=O)O)C(C=O)(C4)[C@@H]2CC[C@@H](C)[C@H]23)O[C@H](C)[C@H]1OC		1208E	0.06 µg/mL
Fc1ccc(/C(Cn2ccnc2)=N/OCc2ccccc2)cc1		CA2	128 µg/mL
CC(C)N=C(N)c1ccc2nc(-c3ccc4c(c3)Cc3cc(-c5nc6ccc(C(N)=NC(C)C)cc6[nH]5)ccc3-4)[nH]c2c1		Isolate CA1247	1.56 µg/mL
Cc1c(S(=O)(=O)c2ccccc2)[n+](=O)c2ccccc2n1[O-]		Clinical isolate 20	15.6 µg/mL
CCCCCCCCOc1ccc(-c2ccc(C(=O)NC3CC(NCCN)CNC(=O)[C@@H]4[C@@H](O)[C@@H](C)CN4C(=O)[C@@H](CO)NC(=O)[C@H]([C@H](O)Cc4ccccc4)NC(=O)[C@@H]4C[C@@H](O)CN4C(=O)[C@H]([C@@H](C)O)NC3=O)cc2)cc1		2183	0.5 µg/mL
Cc1ccc(/C(=N\OCc2ccccc2)c2cc3ccccc3o2)cc1			16 µg/mL
O=C(/C=C/c1cc(O)ccc1O)c1ccccc1		ATCC 18804	100 µg/mL
Cc1c(Cl)[n+](=O)c2cc(Cl)ccc2n1[O-]		Clinical isolate 18	7.8 µg/mL
CCOC(=O)c1csc(NC(=O)CSc2nnc(C(C)Oc3ccccc3)n2C2CCCCC2)n1		NRRL Y-27077	16 µg/mL
CC[C@@H]([C@H](C)O)n1ncn(-c2ccc(N3CCN(c4ccc(OC[C@@H]5CO[C@@](Cn6cncn6)(c6ccc(F)cc6F)C5)cc4)CC3)cc2)c1=O		Isolate CA-9	>4 µg/mL
O=[n+]1c(Sc2ccccc2)c(CBr)n([O-])c2ccccc21		Clinical isolate 15	31.25 µg/mL

Repeating the first 4 entries:

SMILES | setting | strain or isolate | result
O[C@](Cn1cncn1)(Cn1cnc(/C=C/c2ccc(OCC(F)(F)C(F)F)cc2)n1)c1ccc(F)cc1F |  | Isolate 06-9 | 2 µg/mL
CCOC(=O)Cc1csc(NC(=O)CSc2nnc(C(C)Oc3ccc(C)cc3)n2C2CCCCC2)n1 |  | Clinical isolates | >16 µg/mL
CC(C)C(=N)CCC[C@H]1CO[C@@](Cn2cncn2)(c2ccc(F)cc2F)C1 |  | IFO. 1385 | 12.5 µg/mL
C[C@H]1[C@H](O)[C@@H](C)/C=C/C=C/C=C/C=C/C=C/C=C/C=C/[C@H](O[C@@H]2O[C@H](C)[C@@H](O)[C@H](N)[C@@H]2O)C[C@@H]2O[C@](O)(C[C@@H](O)C[C@@H](O)CC[C@H](O)[C@@H](O)C[C@@H](O)CC(=O)O[C@H]1C)C[C@H](O)[C@H]2C(=O)O |  | ATCC64550 | 0.5 µg/mL